Measured values taken from publication PMC8174753.

Test system: T1, Bcal3178 (LysR family regulator) (Burkholderia cenocepacia H111)
T1 sequence (looked up): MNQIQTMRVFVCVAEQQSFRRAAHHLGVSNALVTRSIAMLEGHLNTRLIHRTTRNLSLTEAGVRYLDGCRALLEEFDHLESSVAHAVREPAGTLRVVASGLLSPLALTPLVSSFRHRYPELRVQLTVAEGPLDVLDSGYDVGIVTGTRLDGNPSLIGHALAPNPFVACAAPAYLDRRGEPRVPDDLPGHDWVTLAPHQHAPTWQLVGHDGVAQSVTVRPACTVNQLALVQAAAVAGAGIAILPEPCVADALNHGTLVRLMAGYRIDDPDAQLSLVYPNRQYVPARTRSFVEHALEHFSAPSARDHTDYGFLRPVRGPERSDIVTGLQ
Assay: EMSA
Conditions: unlabeled probe reduces binding; Binding reactions per manufacturer's instructions (Thermo), 3'-biotin probes, 5% polyacrylamide gel; pH and temperature not stated; recombinant protein; residues 1-327; protein details: GST (pGEX-6p-1); label: 3'-biotin; probe letters rebuilt from the primers and the genome

“CGAACATGAATAGGGCCTCACCGGCGCCGCACCCGTGAAGCATATCGATGGGGCCAGCCGCCGCCTATCGGACTGGACTGATTCTGCGCCAACGCGCGTGTCGGGAGACGACGCGGAATGAATGCGACCGGTTGACAGCCGTGGCCACCCTGTGATTTGATGCCGGTCATGCACGCCGCCCAGTTCCTCTTCTCGCTACGACTACTAGCCCGCTTCTCCGGGCTGGGTCTGCGGCTGCGCGCTTTCCATCTGCTTCTTTCCTGAAGCGCCAGATTTTCCCCGCATCACCGACCTGGCCCCGGTTGTCGACCGGCGCCTGAGTTCGTCTTTCTTCCGTCACCACTCCGCTCCGTCCCGGTCGCCCAACCGCCAAGGCCGTCGTTTGCCGTACCGCTTTGCCGTTGTGCCGCTTTTTTGCCGTTCTTACCGCTGCGCATGGACCCGGCTCATCACGCCGATGGCCGCCGCGCCGCGCTTCACCGACAAACAGACCGAGGACCGACATC (double strand) [bclACB promoter 506 bp]”: binds.

Where a protein sequence is shown, tags need not be part of it.
